Compound potency records, mixed from different reports. Data source: NIAID ChemDB in PubChem.

All rows: growth or infection tests; agent: HIV-1; endpoint: fold resistance

Fold resistance has wild type as its base. Conditions beyond the fields shown may differ between rows.

{"smiles": "CCc1c(C)[nH]c(=O)c(I)c1Oc1cc(C)cc(C)c1", "changes": "RT-K103N Y181C", "cells": "MT-4", "method": "cytopathic effect / MTT", "result": "32"}
{"smiles": "CCc1c(Sc2ccccc2)n(COCc2ccccc2)c(=O)[nH]c1=O", "strain or isolate": "IIIB", "changes": "RT-Y181C", "cells": "CEM", "method": "syncytia", "result": "205"}
{"smiles": "N#Cc1cc2[nH]c3ccccc3c2n(-c2ccc([N+](=O)[O-])cc2)c1=O", "strain or isolate": "C", "changes": "RT-L100I K103N", "cells": "MT-4", "method": "cytopathic effect / MTT", "result": "8"}
{"smiles": "CCc1c(Sc2cc(C)cc(C)c2)n(COCCO)c(=O)[nH]c1=O", "strain or isolate": "IIIB TIBO R82913-resistant (RT K103N)", "changes": "RT-K103N", "cells": "CEM", "method": "syncytia", "result": "117"}
{"smiles": "Cc1cc(OCCCS(N)(=O)=O)ccc1NC(=O)COc1ccc(Cl)cc1C(=O)c1cc(F)cc(C(F)(F)F)c1", "strain or isolate": "HXB2", "changes": "RT-K101E", "cells": "HeLa + HELA CD4+", "method": "β-galactosidase", "result": "~1"}
{"smiles": "CC(C)=CCOc1cc(NC(=S)c2ccsc2C)ccc1Cl", "strain or isolate": "Pyridinone-resistant (RT Y181C K103N)", "changes": "RT-K103N Y181C", "cells": "CEM + CEM-SS", "method": "cytopathic effect / XTT", "result": ">250"}
{"smiles": "Cn1c2ccccc2c2c1cc(C#N)c(=O)n2-c1ccc([N+](=O)[O-])cc1", "strain or isolate": "J", "changes": "RT-I31L L100I K103N E138G Y181C L214F", "cells": "MT-4", "method": "cytopathic effect / MTT", "result": "5"}
{"smiles": "CCc1c(C)[nH]c(=O)c(CC)c1Oc1cc(C)cc(C)c1", "changes": "RT-K103N", "cells": "MT-4", "method": "cytopathic effect / MTT", "result": "13"}
{"smiles": "CCN1c2ncc(CCOc3ccc(-c4ccc(C(=O)O)c[n+]4[O-])cc3C)cc2C(=O)N(C)c2cccnc21", "changes": "RT-K103N Y181C", "cells": "C8166", "method": "p24", "result": "1"}
{"smiles": "CCOCn1c(Sc2ccccc2)c(C(C)C)c(=O)[nH]c1=S", "strain or isolate": "IIIB", "changes": "Nevirapine resistant (RT Y181C)", "cells": "CEM", "method": "syncytia", "result": "17.8"}
{"smiles": "CCN1c2ncc(CCOc3ccc(-c4cc[n+]([O-])cc4)cc3)cc2C(=O)N(C)c2cccnc21", "changes": "RT-K103N Y181C", "cells": "C8166", "method": "p24", "result": "1"}
{"smiles": "Cc1cc(S(N)(=O)=O)ccc1NC(=O)COc1ccc(Cl)cc1C(=O)c1cccc(C#N)n1", "strain or isolate": "HXB2", "changes": "RT-P225H", "cells": "HeLa + HELA CD4+", "method": "β-galactosidase", "result": "~1"}
{"smiles": "CCN1c2ncc(CCOc3ccc(C(=O)Nc4ccc(C(=O)O)cc4)cc3C)cc2C(=O)Nc2c(C)ccnc21", "changes": "RT-K103N Y181C", "cells": "C8166", "method": "p24", "result": ">1"}
{"smiles": "CCc1c(C)[nH]c(=O)c(C2CC2)c1Oc1cc(C)cc(C)c1", "changes": "RT-Y188L", "cells": "MT-4", "method": "cytopathic effect / MTT", "result": "25"}
{"smiles": "CCN1c2ncc(CCOc3ccc(-c4cc(C(=O)O)on4)cc3C)cc2C(=O)N(C)c2cccnc21", "changes": "RT-K103N Y181C", "cells": "C8166", "method": "p24", "result": "1"}
{"smiles": "CCc1c(Sc2cc(C)cc(C)c2)n(COCCO)c(=S)[nH]c1=O", "strain or isolate": "IIIB (TIBO 82150) (RT-L100I)", "changes": "RT-L100I", "cells": "CEM", "method": "syncytia", "result": "7.5"}
{"smiles": "CCc1cc(C#N)cc(C(=O)c2cc(Cl)ccc2OCC(=O)Nc2ccc(S(N)(=O)=O)cc2C)c1", "strain or isolate": "HXB2", "changes": "RT-V108I", "cells": "HeLa + HELA CD4+", "method": "β-galactosidase", "result": "~1"}
{"smiles": "CC(C)=CCOc1cc(NC(=S)c2ccoc2C)ccc1Cl", "strain or isolate": "NL4-3 (RT K101E)", "changes": "RT-K101E", "cells": "CEM + CEM-SS", "method": "cytopathic effect / XTT", "result": "6.67"}
{"smiles": "CC(C)OC(=O)c1cc(NC(=S)OC(C)C)ccc1Cl", "strain or isolate": "IIIB", "changes": "RT-V179D", "cells": "CEM", "method": "syncytia", "result": "11"}
{"smiles": "CCc1c(C)[nH]c(=O)c(SC)c1Oc1cc(C)cc(C)c1", "changes": "RT-Y188L", "cells": "MT-4", "method": "cytopathic effect / MTT", "result": "63"}
{"smiles": "Cc1ccsc1C(=O)Nc1ccc(Cl)c(/C=N/OC(C)(C)C)c1", "changes": "RT-E138K", "cells": "CEM", "method": "syncytia", "result": "6.83"}
{"smiles": "CCN1c2ncc(CCOc3ccc(-c4cccc(CC(=O)O)c4)cc3)cc2C(=O)N(C)c2cccnc21", "changes": "RT-K103N Y181C", "cells": "C8166", "method": "p24", "result": ">1"}
{"smiles": "CC(C)=CCOc1cc(NC(=S)c2ccoc2C)ccc1Cl", "strain or isolate": "IIIB", "changes": "RT-L100I", "cells": "CEM", "method": "syncytia", "result": "2.7"}
{"smiles": "CCN1c2ncc(CCOc3ccc(-c4ccc(CCC(=O)O)cc4)cc3C)cc2C(=O)N(C)c2cccnc21", "changes": "RT-K103N Y181C", "cells": "C8166", "method": "p24", "result": ">1"}
{"smiles": "Cc1occc1C(=S)Nc1ccc(Cl)c(/C=N/OC(C)(C)C)c1", "strain or isolate": "IIIB", "changes": "RT-L100I", "cells": "CEM", "method": "syncytia", "result": "1.7"}
{"smiles": "CC(C)=CCOc1cc(NC(=S)c2ccoc2C)ccc1Cl", "strain or isolate": "IIIB", "changes": "RT-V106A", "cells": "CEM", "method": "syncytia", "result": "2"}
{"smiles": "O=C1Nc2ccc(F)c(F)c2[C@@](/C=C/C2CC2)(C(F)(F)F)N1", "changes": "RT-Y188C", "result": "<6.32"}
{"smiles": "Cc1cc(OCCCN2CCOCC2)ccc1NC(=O)COc1ccc(Cl)cc1C(=O)c1cccs1", "strain or isolate": "Nevirapine-resistant (RT Y181C)", "changes": "RT-Y181C", "cells": "MT-4", "method": "cytopathic effect / propidium iodide", "result": "~1"}
{"smiles": "O=C1Nc2ccc(F)c(F)c2[C@@](C#CC2CC2)(C(F)(F)F)N1", "changes": "RT-Y181C", "result": "<13.3"}
{"smiles": "CCc1c(C)[nH]c(=O)c(SCCC(N)=O)c1Oc1cc(C)cc(C)c1", "changes": "RT-Y181C", "cells": "MT-4", "method": "cytopathic effect / MTT", "result": "64"}
{"smiles": "CC(C)=CCOc1cc(NC(=S)c2ccoc2C)ccc1Cl", "strain or isolate": "4xAZT(RT-D67N K70R T215Y K219Q)", "changes": "RT-D67N K70R T215Y K219Q", "cells": "CEM + CEM-SS", "method": "p24", "result": "1"}
{"smiles": "COc1cc2c(cc1Cc1cccc(Cl)c1F)c(=O)c(C(=O)O)cn2[C@H](CO)C(C)C", "strain or isolate": "NL4-3", "changes": "H171T", "cells": "MT-4", "method": "luminescence", "result": "1"}
{"smiles": "CC(=O)c1ccc(C)cc1NC(C(N)=O)c1c(Cl)cccc1Cl", "strain or isolate": "UC10-resistant (RT Y181C K101E)", "changes": "RT-Y181C K101E", "cells": "CEM + CEM-SS", "method": "cytopathic effect / XTT", "result": ">100"}
{"smiles": "C[C@@H]1CCO[C@H]2Cn3cc(C(=O)NCc4ccc(F)cc4F)c(=O)c(O)c3C(=O)N12", "strain or isolate": "NL4-3", "changes": "M50I", "cells": "CBMC", "method": "RT activity", "result": "1"}
{"smiles": "CCC(=O)c1ccc(F)c([C@@H]2C[C@@H]2NC(=O)Nc2ccc(C#N)cn2)c1O", "strain or isolate": "LAI", "changes": "NNRTI-resistant (RT K101E/G190A)", "cells": "TZM-bl", "method": "β-galactosidase / luminescence", "result": "2.2"}
{"smiles": "CCc1c(C)[nH]c(=O)c(OC)c1Oc1cc(C)cc(C)c1", "changes": "RT-L100I K103N", "cells": "MT-4", "method": "cytopathic effect / MTT", "result": "126"}

2 of the rows above, restated:

smiles,strain or isolate,changes,cells,method,result
N#Cc1cc2[nH]c3ccccc3c2n(-c2ccc([N+](=O)[O-])cc2)c1=O,C,RT-L100I K103N,MT-4,cytopathic effect / MTT,8
CC(C)=CCOc1cc(NC(=S)c2ccoc2C)ccc1Cl,NL4-3 (RT K101E),RT-K101E,CEM + CEM-SS,cytopathic effect / XTT,6.67